Here are results for 1 molecule from PMC2596486 (PLoS ONE, 2008).

The test deals with rHA subtype H3 (A/Wyoming/3/03) (Influenza A virus A/Wyoming/3/2003 …, UniProt Q595Z7, strain). In words: ELISA. The note with it: both partners purified. (In general: In an ELISA, binding on a coated surface is turned into a signal by an enzyme label.)

B1: CR6323 human IgG1 (antibody, V domains shown)
VH: EVQLVESGAEVKKPGSSVKVSCKASGGTFSSYGISWVRQAPGQGLEWMGDIIGMFGSTNYAQNFQGRLTITADESTSTAYMELSSLRSEDTAVYYCARSSGYYPAYLPHWGQGTLVTVSS
VL: not shown
As for B1, the binding result is given as “no binding (tested: 5 µg/ml IgG1)”.
